# Data reported in patent US11649222B2, “Compounds” (UNIVERSITETET I OSLO, priority 2016, dated 2023).
# Test system: K. pneumoniae K66-45
# Type: cell-based
# Protocol: After plating and grown overnight at 37° C., only single colonies, ignoring any touching the edges of the plate, were counted.
# 10^9 CFU K66-45 (Mueller-Hinton broth, no selection) was plated and grown overnight, 37° C. Only single colonies, ignoring any touching the edges of the plate, were counted.
smiles,measurement,setting,value
"CN(C[C@H](O)[C@@H](O)[C@H](O)[C@H](O)CO)C(=O)c1ccc(CN(Cc2ccccn2)Cc2ccccn2)nc1 [Example 26, 6-((bis(pyridin-2-ylmethyl)amino)methyl)-N-methyl-N-((2S,3R,4R,5R)-2,3,4,5,6-pentahydroxyhexyl)nicotinamide]",Resistance/mutant frequency (number of colonies),"Example 26 15 mg/L, 1 mg/L MEM",137 colonies
same,Resistance/mutant frequency (number of colonies),"Example 26 15 mg/L, 2 mg/L MEM",115 colonies
same,Resistance/mutant frequency (number of colonies),"Example 26 15 mg/L, 4 mg/L MEM",4 colonies
same,Resistance/mutant frequency (number of colonies),"Example 26 25 mg/L, 1 mg/L MEM",74 colonies
same,Resistance/mutant frequency (number of colonies),"Example 26 25 mg/L, 2 mg/L MEM",35 colonies
same,Resistance/mutant frequency (number of colonies),"Example 26 50 mg/L, 1 mg/L MEM",22 colonies
same,Resistance/mutant frequency (number of colonies),"Example 26 50 mg/L, 2 mg/L MEM",n.c.

# Where two headings read alike, the source gives them in different places.
